pKd: −log10 of the molar value.

The text below walks through data of paper PMC9033297.

In the assay the target is ACE2 protein fused to Fc domain (ACE2-Fc) (UniProt Q9BYF1). The assay can be described thus: BLI.

With “RBM-CH3(scaffold) (from UniProt P0DTC2 416-525)”, the pKd was 6.46, the koff came out at 0.0016 s⁻¹ and the kon is 4500 M⁻¹ s⁻¹.
